Pooled drug test results. Numbers come from NIAID ChemDB, via PubChem.

All rows: whole-cell or culture tests; species: Semliki Forest virus

An empty or dashed field is not shown.

compound,measure,read by,cells,result
Nc1ncnc2c1ncn2C[C@H](O)CO,EC50,cytopathic effect,VERO,>400 µg/mL
CCCC#Cc1c(C(N)=O)ncn1[C@@H]1O[C@H](CO)[C@@H](O)[C@H]1O,EC50,cytopathic effect,VERO,>400 µg/mL
CC(=O)N[C@H]1[C@@H](O[C@@H]2O[C@H](C[C@@H](O)[C@H]3O[C@@H](n4ccc(=O)[nH]c4=O)[C@H](O)[C@@H]3O)[C@H](O)[C@H](O)[C@H]2NC(=O)/C=C/CC(C)C)O[C@H](CO)[C@@H](O)[C@@H]1O,EC50,plaque count,VERO,<0.5 µg/mL
Nc1nccc2c1ncn2[C@@H]1C[C@H](CO)[C@@H](O)[C@H]1O,EC50,cytopathic effect,VERO,>400 µg/mL
Nc1ncnc2c1ncn2[C@@H]1C=C(CO)[C@@H](O)[C@H]1O,MIC,-,-,>10 µg/mL
Nc1nc2c(nnn2C[C@H]2CC[C@@H](CO)C2)c(=O)[nH]1,EC50,cytopathic effect,VERO,>200 µg/mL
Nc1ncnc2c1ncn2[C@H]1C[C@H](F)[C@@H](CO)O1,EC50,plaque count,VERO,10.3 µM
Cc1cn([C@@H]2C[C@H](CO)[C@@H](O)C2)c(=O)[nH]c1=O,EC50,cytopathic effect,VERO,>100 µg/mL
C[C@H]1C[C@@H](n2cnc3c(N)ncnc32)[C@H](O)[C@@H]1O,EC50,cytopathic effect,VERO,>100 µg/mL
Nc1nccc2c1ncn2[C@@H]1C[C@H](CO)[C@@H](O)[C@H]1O,EC50,cytopathic effect,VERO,>400 µg/mL
O=c1[nH]c(=O)n([C@H]2C[C@H](O)[C@@H](CO)O2)cc1/C=C/Br,EC50,cytopathic effect,VERO,>400 µg/mL
NC(=O)c1ncn([C@@H]2O[C@H](CO)[C@@H](O)[C@H]2O)n1,EC50,cytopathic effect,VERO,>400 µg/mL
Nc1nc(N)c2nnn(C[C@H]3CC[C@@H](CO)C3)c2n1,EC50,cytopathic effect,VERO,>100 µg/mL
Nc1cc(OCCOCP(=O)(O)O)nc(N)n1,EC50,cytopathic effect,-,>190 µM
Nc1ccn([C@@H]2C[C@H](CO)[C@@H](O)[C@H]2O)c(=O)n1,EC50,cytopathic effect,VERO,3 µg/mL
Nc1ncnc2c1ncn2C[C@@H](CO)OCP(=O)(O)O,EC50,cytopathic effect,-,>50 µM
Nc1ncnc2c1ncn2[C@@H]1C=C(CO)[C@@H](O)[C@H]1O,EC50,cytopathic effect,VERO,1 µg/mL
Nc1nc(Cl)c2nnn(C[C@H]3CC[C@@H](CO)C3)c2n1,EC50,cytopathic effect,VERO,>200 µg/mL
Nc1nccc2c1ncn2[C@@H]1C[C@H](CO)[C@@H](O)[C@H]1O,EC50,cytopathic effect,VERO,>400 µg/mL
Nc1ncnc2c1ccn2[C@@H]1O[C@H](CO)[C@@H](O)[C@H]1O,EC50,cytopathic effect,VERO,>0.1 µg/mL
Nc1ncnc2c1c(Br)cn2[C@@H]1O[C@H](CO)[C@@H](O)[C@H]1O,EC50,cytopathic effect,VERO,>0.1 µg/mL
Nc1ncnc2c1ncn2[C@@H]1C[C@H](CO)[C@@H](O)C1,EC50,cytopathic effect,VERO,>100 µg/mL
Nc1ncnc2c1ncn2[C@H]1[C@H](O)[C@H](O)[C@]2(CO)O[C@H]12,EC50,cytopathic effect,VERO,2 µg/mL
Cc1cn([C@@H]2C[C@H](CO)[C@H](O)C2)c(=O)[nH]c1=O,EC50,cytopathic effect,VERO,>200 µg/mL
C[C@H](COc1cc(N)nc(N)n1)OCP(=O)(O)O,EC50,cytopathic effect,-,>180 µM
O=c1[nH]cnc2c1ncn2[C@@H]1C=C(CO)[C@@H](O)[C@H]1O,EC50,cytopathic effect,VERO,300 µg/mL
Cc1c(C(N)=O)ncn1C1OC(CO)C(O)C1O,EC50,cytopathic effect,-,>200 µg/mL

For reference, 2 entries again:

| compound | measure | read by | cells | result |
|---|---|---|---|---|
| Cc1cn([C@@H]2C[C@H](CO)[C@@H](O)C2)c(=O)[nH]c1=O | EC50 | cytopathic effect | VERO | >100 µg/mL |
| Nc1nccc2c1ncn2[C@@H]1C[C@H](CO)[C@@H](O)[C@H]1O | EC50 | cytopathic effect | VERO | >400 µg/mL |

Rows are shuffled and stem from different studies. ECn is the concentration giving n% inhibition of infection, replication or growth.